Experimental data from paper PMC7615677, “DNDI-6174, a preclinical candidate for visceral leishmaniasis that targets the cytochrome bc1 complex” (Science translational medicine, 2023).

Test system: L. donovani promastigote cultures
Assay type: cell-based, Leishmania donovani
Details: DNDI-6174 Res 2 (Asp231Glu)
Procedure: The clonal L. donovani cell line LdBOB (derived from MHOM/SD/62/1S-CL2D) was grown as promastigotes at 28°C and as axenic amastigotes at 37°C, as described previously ([25]).
To examine the effects of test compounds on growth in 96-well plates, promastigote or axenic amastigote cultures seeded at 5 × 10^4 parasites mL^–1 were incubated in the presence of 2-fold serial dilutions of test compounds for 72 h. Following incubation, 50 μM resazurin was added to each well and fluorescence (excitation of 528 nm and emission of 590 nm) measured after a further 3 h incubation.
Starting at sublethal concentrations, drug concentrations in 5 independent cultures were increased in a stepwise manner, usually by 2-fold. […] Five clones (Res 1–5) were selected for further biological study.

Cc1[nH]c2nc(N)nc(C)c2c1-c1ccc(C#N)c2c1OCO2 [DNDI-6174]
Fold-change versus WT: 164
